Compound potency records, mixed from different reports. Data source: NIAID ChemDB in PubChem.

Common to all: tests in culture

An empty or dashed field is not shown. MIC50, MIC90 and the like: level of inhibition, or share of isolates inhibited. Neighbouring rows are from separate reports. ECn: concentration that inhibits the pathogen or its effect by n%. Zone: diameter of growth inhibition.

compound	tested at	agent	measure	strain	setting	method	result
Cc1nn(-c2ccccc2)c2c1C(c1cn(-c3ccccc3)nc1-c1ccc(Cl)cc1)C1=C(NC(C)(c3cc(O)ccc3Cl)NC1=O)O2	1 mg/mL	Mycobacterium phlei	zone	NCIM 2240		agar diffusion / agar	3.5 mm
O=C(Nc1ccc(Cl)c(Cl)c1)c1cc(Cl)ccc1OP(=O)(Oc1ccccc1)Oc1ccccc1		Mycobacterium kansasii	MIC	My 235/80	7 d		4 µM
CO[C@H]1/C=C/O[C@@]2(C)Oc3c(C)c(O)c4c(O)c(c(N5CCN(Cc6c(C)cc(C)cc6C)CC5)c(O)c4c3C2=O)NC(=O)/C(C)=C\C=C\[C@H](C)[C@H](O)[C@@H](C)[C@@H](O)[C@@H](C)[C@H](OC(C)=O)[C@@H]1C		Mycobacterium avium	MIC50	50 strains			0.05 µg/mL
O=C1c2ccccc2OP(=O)(c2ccccc2)N1c1ccccc1		Mycobacterium kansasii	MIC	My 235/80	14 d		500 µM
Nc1ccc(S(=O)(=O)c2ccc(N)cc2)cc1		Mycobacterium ulcerans	MIC	Isolate 5155			2 µg/mL
Cc1nn(-c2ccccc2)c2c1C(c1cn(-c3ccccc3)nc1-c1ccc(Cl)cc1)C1=C(NC(C)(c3cc(O)c(Cl)c(O)c3)NC1=O)O2	0.5 mg/mL	Mycobacterium phlei	zone	NCIM 2240		agar diffusion / agar	4 mm
CN[C@@H]1[C@H](O[C@H]2[C@H](O[C@H]3[C@H](O)[C@@H](O)[C@H](N=C(N)N)[C@@H](O)[C@@H]3N=C(N)N)O[C@@H](C)[C@]2(O)C=O)O[C@@H](CO)[C@H](O)[C@H]1O		Mycobacterium aurum	EC50	A+			<0.18 µg/mL
Cc1nn(-c2ccccc2)c2c1C(c1cn(-c3ccccc3)nc1-c1ccc(F)cc1)C1=C(NC(C)(c3cc(O)cc(O)c3)NC1=O)O2	0.5 mg/mL	Mycobacterium phlei	zone	NCIM 2240		agar diffusion / agar	1.5 mm
NNC(=O)c1ccncc1		Mycobacterium kansasii	MIC100	6509/96 clinical isolate	7 d	broth dilution / absorbance	8 µM
CN(C)c1cc(NC(=O)CNC(C)(C)C)c(O)c2c1C[C@H]1C[C@H]3[C@H](N(C)C)C(=O)C(C(N)=O)=C(O)[C@@]3(O)C(=O)C1=C2O		Mycobacterium massiliense	MIC	V44		broth dilution	2 µg/mL
Cc1nn(-c2ccccc2)c2c1C(c1cn(-c3ccccc3)nc1-c1ccc(Cl)cc1)C1=C(NC(C)(c3cc(O)c(I)cc3Cl)NC1=O)O2	1 mg/mL	Mycobacterium phlei	zone	NCIM 2240		agar diffusion / agar	2.8 mm
Cc1cc(NS(=O)(=O)c2ccc(NC(=O)N(C(C)C)C(C)C)cc2)no1		Mycobacterium kansasii	MIC100	6509/96 clinical isolate	7 d	broth dilution / absorbance	500 µM
CC1CN(c2cc3c(cc2F)c(=O)c(C(=O)O)cn3C2CC2)CCN1		Mycobacterium smegmatis	MIC99	KD1163 (GRYA+)			0.1 µg/mL
O=C(Nc1ccccc1)c1ccccc1OP(=O)(Oc1ccccc1)Oc1ccccc1		Mycobacterium kansasii	MIC	My 235/80	21 d		500 µM
Cc1cc(NS(=O)(=O)c2ccc(NC(=O)C(=O)Nc3ccc(S(=O)(=O)Nc4cc(C)on4)cc3)cc2)no1		Mycobacterium kansasii	MIC100	6509/96 clinical isolate	7 d	broth dilution / absorbance	8 µM
O=C(Nc1ccc(C(F)(F)F)cc1)c1cc(Br)ccc1OP(=O)(c1ccccc1)c1ccccc1		Mycobacterium kansasii	MIC	My 235/80	21 d		8 µM
CC[C@H]1OC(=O)[C@H](C)[C@@H](O[C@H]2C[C@@](C)(OC)[C@@H](O)[C@H](C)O2)[C@H](C)[C@@H](O[C@@H]2O[C@H](C)C[C@H](N(C)C)[C@H]2O)[C@](C)(OC)C[C@@H](C)C(=O)[C@H](C)[C@@H](O)[C@]1(C)O		Mycobacterium abscessus	MIC90			broth dilution	4 µg/mL
CC(C)N1CCN(c2c(F)cc3c(=O)c(C(=O)O)cn(C4CC4)c3c2F)CC1		Mycobacterium smegmatis	MIC99	KD1163 (GRYA+)			0.31 µg/mL
COc1cc(Cc2cnc(N)nc2N)cc(OC)c1Br		Mycobacterium ulcerans	MBC	Isolate 5155			16 µg/mL
CC1CN(c2cc3c(cc2F)c(=O)c(C(=O)O)cn3C2CC2)CC(C)N1		Mycobacterium smegmatis	MIC99	KD1995 (GYRA D95H)			3.6 µg/mL
O=C(Nc1ccc(C(F)(F)F)cc1)c1cc(Cl)ccc1OP(=O)(Oc1ccccc1)Oc1ccccc1		Mycobacterium kansasii	MIC	My 235/80	7 d		2 µM
COc1c(N2CCNCC2)c(F)cc2c(=O)c(C(=O)O)cn(C3CC3)c12		Mycobacterium smegmatis	MIC99	KD1163 (GRYA+)			0.14 µg/mL
CC[C@@H](CO)NCCN[C@@H](CC)CO		Mycobacterium avium complex	MIC	1854-4			1.9 µg/mL
CN[C@@H]1[C@H](O[C@H]2[C@H](O[C@H]3[C@H](O)[C@@H](O)[C@H](N=C(N)N)[C@@H](O)[C@@H]3N=C(N)N)O[C@@H](C)[C@]2(O)C=O)O[C@@H](CO)[C@H](O)[C@H]1O		Mycobacterium avium complex	MIC	Isolate C-43			≤12.5 µg/mL
COc1c(N2CCN(C(C)C)CC2)c(F)cc2c(=O)c(C(=O)O)cn(C3CC3)c12		Mycobacterium smegmatis	MIC99	KD1995 (GYRA D95H)			2.3 µg/mL
C[C@@H]1CN(c2c(F)c(N)c3c(=O)c(C(=O)O)cn(C4CC4)c3c2F)C[C@H](C)N1		Mycobacterium avium complex	MIC	16		broth dilution	0.5 µg/mL
O=C(Nc1ccc(Cl)c(Cl)c1)c1cc(Cl)ccc1OP(=O)(c1ccccc1)c1ccccc1		Mycobacterium kansasii	MIC	My 6509/96	7 d		4 µM
CCNC(=O)Nc1ccc(S(=O)(=O)Nc2cc(C)on2)cc1		Mycobacterium kansasii	MIC100	6509/96 clinical isolate	14 d	broth dilution / absorbance	500 µM
CCN1CCN(c2c(F)cc3c(=O)c(C(=O)O)cn(C4CC4)c3c2OC)CC1		Mycobacterium smegmatis	MIC99	KD2012 (GYRA G89A)			0.37 µg/mL
CO[C@H]1/C=C/O[C@@]2(C)Oc3c(C)c(O)c4c(O)c(c(/C=N/N5CCN(C)CC5)c(O)c4c3C2=O)NC(=O)/C(C)=C\C=C\[C@H](C)[C@H](O)[C@@H](C)[C@@H](O)[C@@H](C)[C@H](OC(C)=O)[C@@H]1C		Mycobacterium avium intracellulare	MIC50	20 isolates			2 µg/mL
CCC1CN(c2c(F)cc3c(=O)c(C(=O)O)cn(C4CC4)c3c2OC)CCN1		Mycobacterium smegmatis	MIC99	KD2008 (GYRA G89C)			0.65 µg/mL
CO[C@H]1/C=C/O[C@@]2(C)Oc3c(C)c(O)c4c(O)c(c(/C=N/N5CCN(C)CC5)c(O)c4c3C2=O)NC(=O)/C(C)=C\C=C\[C@H](C)[C@H](O)[C@@H](C)[C@@H](O)[C@@H](C)[C@H](OC(C)=O)[C@@H]1C		Mycobacterium aurum	EC90	A+			0.57 µg/mL
CCN1CCN(c2c(F)cc3c(=O)c(C(=O)O)cn(C4CC4)c3c2F)CC1		Mycobacterium smegmatis	MIC99	KD1995 (GYRA D95H)			2 µg/mL
COc1ccc(-c2nn(-c3ccccc3)cc2C2C3=C(NC(C)(c4cc(O)c(I)cc4Cl)NC3=O)Oc3c2c(C)nn3-c2ccccc2)cc1	0.1 mg/mL	Mycobacterium phlei	zone	NCIM 2240		agar diffusion / agar	4 mm
CCCCCCCNC(=O)Nc1ccc(S(=O)(=O)Nc2cc(C)on2)cc1		Mycobacterium kansasii	MIC100	6509/96 clinical isolate	21 d	broth dilution / absorbance	8 µM
CC1CN(c2c(F)cc3c(=O)c(C(=O)O)cn(C4CC4)c3c2F)CC(C)N1		Mycobacterium smegmatis	MIC99	KD1987 (GYRA A91V)			0.47 µg/mL

Repeating the final 2 entries:

compound | tested at | agent | measure | strain | setting | method | result
CCCCCCCNC(=O)Nc1ccc(S(=O)(=O)Nc2cc(C)on2)cc1 |  | Mycobacterium kansasii | MIC100 | 6509/96 clinical isolate | 21 d | broth dilution / absorbance | 8 µM
CC1CN(c2c(F)cc3c(=O)c(C(=O)O)cn(C4CC4)c3c2F)CC(C)N1 |  | Mycobacterium smegmatis | MIC99 | KD1987 (GYRA A91V) |  |  | 0.47 µg/mL